Measured values from several laboratories, pooled; numbers as filed in NIAID ChemDB.

Shared fields: whole-cell or culture tests; agent: HIV-1; cells: MT-4; endpoint: EC50

Lines come from different laboratories, so protocols vary.

compound	strain	changes	method	result
CC(C)[C@H](NC(=O)CNC(=O)OCc1ccccc1)C(=O)N[C@@H](Cc1ccccc1)C(=O)C(F)(F)CCc1ccccc1	-	-	cytopathic effect	1.9 µM
CCCN(C)C(=O)Oc1nsnc1-c1c(F)ccc(N)c1Cl	-	-	cytopathic effect / MTT	0.0088 µg/mL
Nc1ncnc2c1ncn2[C@@H]1CC(CO)(CO)CS1	-	-	cytopathic effect	>100 µg/mL
CC(=O)c1ccc(C)cc1NC(C(N)=O)c1c(Cl)cccc1Cl	Recombinant mutant	RT-A98S E138A	cytopathic effect / MTT	0.048 µM
Nc1ccn([C@H]2CC[C@@H](CO)O2)c(=O)n1	IIIB	-	cytopathic effect / MTT	3.6 µM
CCn1cnc2ncn([C@@H]3O[C@H](CO[Si](C)(C)C(C)(C)C)C4(OS(=O)(=O)C=C4N)[C@H]3O[Si](C)(C)C(C)(C)C)c2c1=O	IIIB	-	trypan blue	0.55 µg/mL
CC(C)=CCN1Cc2cc(Cl)cc3[nH]c(=S)n(c23)C[C@@H]1C	Recombinant mutant	RT-A98S E138A	cytopathic effect / MTT	0.199 µM
O=C(NC1c2ccccc2C[C@H]1O)[C@H](OCc1ccccc1)[C@H](O)[C@@H](O)[C@@H](OCc1ccccc1)C(=O)NC1c2ccccc2C[C@H]1O	-	-	cytopathic effect / XTT	0.11 µM
COc1ccc(/C=C/C(=O)/C=C/c2ccc(OC)c(OC)c2)cc1OC	-	-	cytopathic effect / MTT	>4.1 µM
CNC(=O)[C@@H](NC(=O)[C@H](OCc1ccccc1)[C@H](O)[C@@H](O)[C@@H](OCc1ccccc1)C(=O)N[C@H](C(=O)NC)C(C)C)C(C)C	-	-	cytopathic effect / XTT	1.1 µM
Cn1cnc2ncn([C@@H]3O[C@H](CO[Si](C)(C)C(C)(C)C)C4(OS(=O)(=O)C=C4N)[C@H]3O[Si](C)(C)C(C)(C)C)c2c1=O	IIIB	-	trypan blue	0.15 µg/mL
Cc1cn([C@H]2C=C[C@@H](CO)O2)c(=O)[nH]c1=O	IIIB	-	RT activity	1.6 µM
O=C(/C=C/c1ccc(O)cc1)c1cccc(C(=O)/C=C/c2ccc(O)cc2)c1	-	-	cytopathic effect / MTT	>35 µM
Cc1cn([C@H]2C[C@H](N=[N+]=[N-])[C@@H](COC(=O)CCCCC(=O)N[C@H]3CC[C@]4(C)[C@H]5CC=C6[C@@H]7CC(C)(C)CC[C@]7(C(=O)O)CC[C@@]6(C)[C@]5(C)CC[C@H]4C3(C)C)O2)c(=O)[nH]c1=O	IIIB	-	MTT	0.013 µg/mL
O=C1/C(=C/c2ccc(O)c(O)c2)CC/C1=C\c1ccc(O)c(O)c1	-	-	cytopathic effect / MTT	>15 µM
Nc1nc(NC2CC2)c2ncn([C@H]3C=C[C@@H](CO)C3)c2n1	IIIB	-	cytopathic effect / MTT	7.24 µM
Cc1cn([C@H]2C[C@H](N=[N+]=[N-])[C@@H](CO)O2)c(=O)[nH]c1=O	IIIB	-	cytopathic effect / MTT	0.04 µM
Nc1ccn([C@H]2CC[C@@H](CO)O2)c(=O)n1	Recombinant mutant	RT-A98S	cytopathic effect / MTT	1.137 µM
CC(C)(C)[Si](C)(C)OC[C@H]1O[C@@H](n2cnc3c(N)ncnc32)[C@H](O[Si](C)(C)C(C)(C)C)C12OS(=O)(=O)C=C2N	IIIB	-	trypan blue	0.27 µg/mL
Cc1ccnc2c1NC(=O)c1cccnc1N2C1CC1	-	RT-D67N K70R T215Y K219Q	-	<0.2 µM
COc1cc(/C=C/C(=O)CC(=O)/C=C/c2ccc(O)c(OC)c2)ccc1O	-	-	cytopathic effect / MTT	>7.4 µM
CCn1c(=O)c(C)cn([C@@H]2O[C@H](CO[Si](C)(C)C(C)(C)C)C3(OS(=O)(=O)C=C3N)[C@H]2O[Si](C)(C)C(C)(C)C)c1=O	Recombinant mutant	RT-E138A	cytopathic effect / MTT	2.346 µM
O=S(=O)(O)OCC1OC2OC3C(COS(=O)(=O)O)OC(OC4C(COS(=O)(=O)O)OC(OC5C(COS(=O)(=O)O)OC(OC6C(COS(=O)(=O)O)OC(OC7C(COS(=O)(=O)O)OC(OC8C(COS(=O)(=O)O)OC(OC1C(OS(=O)(=O)O)C2OS(=O)(=O)O)C(OS(=O)(=O)O)C8OS(=O)(=O)O)C(OS(=O)(=O)O)C7OS(=O)(=O)O)C(OS(=O)(=O)O)C6OS(=O)(=O)O)C(OS(=O)(=O)O)C5OS(=O)(=O)O)C(OS(=O)(=O)O)C4OS(=O)(=O)O)C(OS(=O)(=O)O)C3OS(=O)(=O)O	IIIB	-	cytopathic effect / trypan blue	10.5 µg/mL
O=C(/C=C/c1ccc(O)c(O)c1)c1cccc(C(=O)/C=C/c2ccc(O)c(O)c2)c1	-	-	cytopathic effect / MTT	>5 µM
CC(C)(C)OC(=O)N[C@@H](Cc1ccccc1)[C@@H](O)C[C@@H](Cc1ccc(OCCN2CCOCC2)cc1)C(=O)N[C@H]1c2ccccc2C[C@H]1O	WMJ-2	-	antigen	<0.006 µM
COc1cc(/C=C/C(=O)/C=C/c2ccc(O)c(OC)c2)ccc1O	-	-	cytopathic effect / MTT	>1.4 µM
CC(C)[C@H](NC(=O)OCc1ccccc1)C(=O)N[C@@H](Cc1ccccc1)C(=O)C(F)(F)CCc1ccccc1	-	-	cytopathic effect	>100 µM
Nc1nc(=O)n([C@@H]2CS[C@H](CO)O2)cc1F	RF	RT-M184I	cytopathic effect / MTT	323 µM
CC(C)[C@H](NC(=O)OCc1ccccc1)C(=O)N[C@@H](Cc1ccccc1)C(=O)C(F)(F)CCc1ccccn1	-	-	cytopathic effect	5.7 µM
Cc1cn([C@H]2C[C@H](N=[N+]=[N-])[C@@H](CO)O2)c(=O)[nH]c1=O	-	-	cytopathic effect	0.0007 µg/mL
CN(C)c1ncnc2c1ncn2[C@@H]1O[C@H](CO[Si](C)(C)C(C)(C)C)C2(OS(=O)(=O)C=C2N)[C@H]1O[Si](C)(C)C(C)(C)C	IIIB	-	trypan blue	0.27 µg/mL
CC[C@@]1(O)C(=O)OCc2c1cc1n(c2=O)Cc2cc3ccccc3nc2-1	-	-	cytopathic effect / MTT	>0.01 µM
Cc1cn([C@@H]2O[C@H](CO[Si](C)(C)C(C)(C)C)C3(OS(=O)(=O)C=C3N)[C@H]2O[Si](C)(C)C(C)(C)C)c(=O)n(C)c1=O	HXB2 (RT E138A S162C E169D T200A L214F) Clinical isolate	RT-E138A S162C E169D T200A L214F	cytopathic effect / MTT	2.98 µM

A second listing of 2 rows from above:

compound	strain	changes	method	result
CC(C)[C@H](NC(=O)CNC(=O)OCc1ccccc1)C(=O)N[C@@H](Cc1ccccc1)C(=O)C(F)(F)CCc1ccccc1	-	-	cytopathic effect	1.9 µM
Cc1cn([C@H]2C[C@H](N=[N+]=[N-])[C@@H](CO)O2)c(=O)[nH]c1=O	IIIB	-	cytopathic effect / MTT	0.04 µM

ECn: concentration that inhibits the pathogen or its effect by n%. Blank or dashed fields: not listed here.